For the data set, the system named is S. typhimurium TA100. The data set is described as follows: Ames mutagenicity assay, strain TA100 (hisG46, pKM101). As to conditions: slope of dose-response curve, S9 for AFB1, AF-2: only zero plus 2 first doses. Background: The Ames test uses bacterial strains that need an amino acid and regain growth without it when mutated back.

With Aflatoxin B1, the Specific mutagenicity (TA100, IPTG 0.2 mM in top agar) came to 692 revertants/plate/nmole and the Specific mutagenicity (TA100, no IPTG) is 846 revertants/plate/nmole.

The values above are taken from article PMC7092418 (Genes and Environment, 2020).
